A mixed list of measured activities; the numbers were collected in NIAID ChemDB.

Common to all: tests in culture; organism: Herpes simplex virus 1; read-out: MIC

a–b is a range or a potency band.

SMILES,strain,value
O=c1[nH]c(=O)n([C@H]2C[C@H](O)[C@@H](CO)O2)cc1I,WT-34,3.2 µg/mL
CCSC1NN=C(Cc2nc(C)n(C)n2)N1c1ccccc1,KOS,400 µg/mL
Cc1cn([C@@H]2O[C@H](CO)[C@@H](O)[C@@H]2F)c(=O)[nH]c1=O,-,0.013 µM
Nc1ncnc2c1ncn2[C@@H]1C=C[C@@H](O)[C@H]1O,KOS,150 µg/mL
O=c1[nH]c(=O)n([C@H]2C[C@H](O)[C@@H](CO)O2)cc1/C=C/Br,-,0.005 µg/mL
O=c1[nH]c(=O)n([C@H]2C[C@H](O)[C@@H](CO)O2)cc1/C=C/Br,-,0.032 µg/mL
Nc1nccc2c1ncn2[C@@H]1CC[C@@H](O)[C@H]1O,KOS,>400 µg/mL
Nc1ncnc2c1ncn2[C@@H]1C[C@H](CO)[C@@H](O)[C@@H]1O,WT-20,10 µg/mL
CCn1nc(CC(=O)N/N=C/c2ccco2)nc1C,KOS,>400 µg/mL
O=c1[nH]c(=O)n([C@H]2C[C@H](O)[C@@H](CO)O2)cc1I,KET,1.1 µg/mL
Cc1nc(Cc2n[nH]c(=S)n2-c2ccccc2)nn1C,TK (KOS ACV),80 µg/mL
Nc1ccn(C[C@@H](CO)OCP(=O)(O)O)c(=O)n1,TK-,2 µg/mL
C=Cc1cn([C@@H]2O[C@H](CO)[C@@H](O)[C@@H]2O)c(=O)[nH]c1=O,-,0.32 µg/mL
O=c1[nH]c(=O)n([C@@H]2O[C@H](CO)[C@@H](O)[C@@H]2O)cc1/C=C/Br,-,0.1 µM
Nc1nccc2c1ncn2[C@@H]1C[C@H](CO)[C@@H](O)[C@H]1O,KOS,>400 µg/mL
Nc1nc(=O)n([C@@H]2O[C@H](CO)[C@@H](O)[C@@H]2F)cc1I,-,0.01 µM
Nc1ncnc2c1ncn2C[C@@H](CO)OCP(=O)(O)O,-,2 µg/mL
CCn1nc(Cc2n[nH]c(=S)o2)nc1C,KOS,>400 µg/mL
Cc1cn([C@@H]2O[C@H](CO)[C@@H](O)[C@@H]2Cl)c(=O)nc1N,-,0.64 µM
O=P1(O)OCC2O[C@@H](n3cnc4c(NO)ncnc43)[C@H](O)C2O1,HF,1 µg/mL
CCc1cn([C@H]2C[C@H](O)[C@@H](CO)O2)c(=O)[nH]c1=O,VR-3,3.2 µg/mL
CCSc1ncnc2c1ncn2[C@@H]1OC2COP(=O)(O)OC2[C@H]1O,HF,3.2–32 µg/mL
N=c1c2ncn([C@@H]3O[C@H](COP(=O)(O)O)[C@@H](O)[C@@H]3O)c2ncn1O,-,1–10 µg/mL
CCc1nc(CC(=O)NN=C(C)C)nn1CC,TK (KOS ACV),>400 µg/mL
O=c1[nH]c(=O)n([C@H]2C[C@H](O)[C@@H](CO)O2)cc1I,-,3.2 µg/mL
CCn1nc(-c2ccc(Cn3ccc4ccccc43)cc2)nc1C,TK (KOS ACV),80 µg/mL
Nc1nc2c(ncn2CCC(O)CO)c(=O)[nH]1,-,4 µM

An empty or dashed field is not shown. Rows are shuffled and stem from different studies.